Measurements: patent publication US10195189B2, “2-phenethenyltetrahydro isoquinolines useful as anti-HIV compounds” (priority 2014, dated 2019)

Tested on: HIV-1 NL4-3 viral clone expressing Renilla luciferase
Assay type: cell-based
Details: ratio of CC50 over EC50
Method: Protocol for MT-2 Spread Assay
The present assay was used to screen candidate antiviral compounds by quantification of virus spread and production over several rounds of infection in vitro. MT-2, a HIV-1 permissive human T-cell line, was seeded in microtiter plates and was simultaneously treated with serially diluted compound and inoculated with a HIV-1 NL4-3 viral clone engineered to express Renilla luciferase in place of Net Following treatment, the culture was incubated for 96 hours. After the incubation, media was collected and used to estimate relative infectivity on the indicator cell line, TZM-bl. Additionally, viral spread was quantified by measuring luciferase activity via a commercially available luciferase substrate. In parallel, MT-2 cells were seeded and inoculated with mock virus in the presence of serially diluted compound. Compound toxicity was quantified 96 hours after treatment with AlamarBlue.
MT-2 (NIH Aids reagent program 237) cells were grown and maintained in an incubator at 37° C. with 5% CO2 using a basal medium of RPMI-1640 supplemented with 10% FBS. Cells were seeded in 100 μl at 2×10^4 cells/well in white walled 96-well microtiter plates. Candidate compounds were 3-fold serially diluted in the appropriate solvent. Solvent without compound was used as a no drug reference. Cells were inoculated at a multiplicity of 0.027 with an HIV-1 NL4-3 virus stock engineered to express Renilla luciferase in place of Net Diluted virus stock was first added to serially diluted compound. Compound and virus were delivered to cells in an equal volume (100 μl) and treated cultures were returned to the incubator for 96 hours. In parallel, plates for cytotoxicity estimates were prepared in the same way except cells were plated in clear walled 96-well microtiter plates and were mock infected.
At 96 hours post infection, 100 μl virus containing culture supernatant was collected from the treated and infected cultures and serially diluted in DMEM supplemented with 10% FBS, 1% sodium pyruvate, and 20 μg/ml DEAE dextran. One day prior, TZM-bl (ATCC PTA-5659) were cultured in basal medium of DMEM supplemented with 10% FBS and 1% sodium pyruvate and seeded at 7.5×10^3 cells/well in black walled 96-well microtiter plates. Diluted virus containing culture supernatant was transferred to TZM-bl cultures and incubated for 48 hours at 37° C. with 5% CO2. Infected TZM-bl cultures were fixed for 5 minutes with a 1% formaldehyde/0.2% gluteraldehyde/PBS solution then washed three times with PBS. Fixed cultures were incubated at 37° C. for 25 minutes with a 200 μg/ml MUG (4-Methylumbelliferyl β-D-[…])/DMEM solution. The reaction was stopped with an equal volume of 1M sodium carbonate and read at 360, 449 nm on fluorescence plate reader (Biotek).
At 96 hours post infection, 100 μl of culture supernatant was removed from the treated and infected cultures and EnduRen live cell substrate (Promega) was added at a final concentration 1.3 μg/ml. Cells were incubated for 1.5 hours at 37° C. with 5% CO2 then read on a luminescence plate reader (Biotek).
For all assays, data was imported into Accelrys Assay Explorer 3.3. In Assay Explorer, % inhibition (antiviral or cytotoxicity) was calculated using the solvent control as a reference by the following equation: 1−(SignalCompound/SignalReference). The % Inhibition and compound concentration data was fitted using the following 4-parameter logistic model (Assay Explorer model 42):
[formula] where X is compound concentration, Y is % inhibition, D is the maximum % Inhibition (constrained to 100%), C is IC50 value or inflection point, B is the hill slope, and A is the minimum % inhibition (constrained to 0%). The IC50 value is reported as the EC50 or CC50 depending on the assay endpoint. EC50 represents the effective concentration at which virus replication is inhibited by 50 percent. CC50 represents the concentration that results in the death of 50 percent of the host cells. […]

**Q.** How did the SI turn out when COc1cc(C)c(/C=C/C2NCCc3cc(OCc4ccccc4)c(OC)cc32)cc1OCc1ccccc1 (stereo not shown) [AF, 6-benzyloxy-1-[(E)-2-(5-benzyloxy-4-methoxy-2-methyl-phenyl)vinyl]-7-methoxy-1,2,3,4-tetrahydroisoquinoline] was run?
**A.** Its SI is 48.2.

**Q.** Which SI does the source give for COc1cc2c(cc1OCc1ccccc1)CCNC2/C=C/c1cc(OC)c(OCc2ccccc2)c(OC)c1 (stereo not shown) [AP, 6-Benzyloxy-1-[(E)-2-(4-benzyloxy-3,5-dimethoxy-phenyl)vinyl]-7-methoxy-1,2,3,4-tetrahydroisoquinoline] here?
**A.** The SI was 1.7.

**Q.** How did the SI turn out when COc1cc(OC)c(OC)cc1/C=C/C1NCCc2cc(OCc3ccccc3)c(OC)cc21 (stereo not shown) [AQ, 6-Benzyloxy-7-methoxy-1-[(E)-2-(2,4,5-trimethoxyphenyl)vinyl]-1,2,3,4-tetrahydroisoquinoline] was run?
**A.** The SI was 131.1.

**Q.** With COc1ccc(/C=C/C2NCCc3cc(OCc4ccccc4)c(OC)cc32)cc1Br (stereo not shown) [AR, 6-Benzyloxy-1-[(E)-2-(3-bromo-4-methoxy-phenyl)vinyl]-7-methoxy-1,2,3,4-tetrahydroisoquinoline] as the compound, how does the SI read?
**A.** Its SI is 8.2.

**Q.** How did the SI turn out when COc1cc(C(C)(C)C)c(/C=C/C2NCCc3cc(OCc4ccccc4)c(OC)cc32)cc1OCc1ccccc1 (stereo not shown) [AS, 6-Benzyloxy-1-[(E)-2-(5-benzyloxy-2-tert-butyl-4-methoxy-phenyl)vinyl]-7-methoxy-1,2,3,4-tetrahydroisoquinoline] was run?
**A.** Its SI is 1.3.

**Q.** With COc1cc(/C=C/C2NCCc3cc(OCc4ccccc4)c(OC)cc32)cc(OC)c1 (stereo not shown) [AT, 6-Benzyloxy-1-[(E)-2-(3,5-dimethoxyphenyl)vinyl]-7-methoxy-1,2,3,4-tetrahydroisoquinoline] as the compound, how does the SI read?
**A.** The SI was 6.3.

**Q.** With COc1cc(/C=C/C2NCCc3cc(OCc4ccccc4)c(OC)cc32)ccn1 (stereo not shown) [AU, 6-benzyloxy-7-methoxy-1-[(E)-2-(2-methoxy-4-pyridyl)vinyl]-1,2,3,4-tetrahydroisoquinoline] as the compound, how does the SI read?
**A.** The SI was 2.

**Q.** COc1ccc(/C=C/C2NCCc3cc(OCc4ccccc4)c(OC)cc32)c(OC)c1 (stereo not shown) [AV, 6-Benzyloxy-1-[(E)-2-(2,4-dimethoxyphenyl)vinyl]-7-methoxy-1,2,3,4-tetrahydroisoquinoline] was tested. Which SI did it give?
**A.** Its SI is 39.3.

**Q.** Which SI does the source give for COc1cc2c(cc1OCc1ccccc1)CCNC2/C=C/c1ccncc1 (stereo not shown) [AW, 6-Benzyloxy-7-methoxy-1-[(E)-2-(4-pyridyl)vinyl]-1,2,3,4-tetrahydroisoquinoline] here?
**A.** Its SI is 3.5.

**Q.** COc1ccc(/C=C/C2NCCc3cc(OCc4ccccc4)c(OC)cc32)cn1 (stereo not shown) [AX, 6-Benzyloxy-7-methoxy-1-[(E)-2-(6-methoxy-3-pyridyl)vinyl]-1,2,3,4-tetrahydroisoquinoline] was tested. Which SI did it give?
**A.** The SI was 3.5.

**Q.** COc1cc2c(cc1OCc1ccccc1)CCNC2c1cc(OCc2ccccc2)c(OC)cc1C (stereo not shown) [AY, 6-(Benzyloxy)-1-(5-(benzyloxy)-4-methoxy-2-methylphenyl)-7-methoxy-1,2,3,4-tetrahydroisoquinoline] was tested. Which SI did it give?
**A.** The SI was 1.1.

**Q.** With COc1cc2c(cc1OCc1ccccc1)CCNC2c1ccccc1CNC(=O)OC(C)(C)C (stereo not shown) [AZ, tert-Butyl N-[[2-(6-benzyloxy-7-methoxy-1,2,3,4-tetrahydroisoquinolin-1-yl)phenyl]methyl]carbamate] as the compound, how does the SI read?
**A.** Its SI is 12.3.

**Q.** How did the SI turn out when COc1cc(C)c(/C=C/C2NCCc3cc(OCc4ccccc4)c(OC)cc32)c(C)c1 (stereo not shown) [BA, 6-Benzyloxy-7-methoxy-1-[(E)-2-(4-methoxy-2,6-dimethyl-phenyl)vinyl]-1,2,3,4-tetrahydroisoquinoline] was run?
**A.** The SI was 6.7.

**Q.** With COc1cc2c(cc1OCc1ccccc1)CCNC2/C=C/c1cc2c(cc1C)OCO2 (stereo not shown) [BB, 6-Benzyloxy-7-methoxy-1-[(E)-2-(6-methyl-1,3-benzodioxol-5-yl)vinyl]-1,2,3,4-tetrahydroisoquinoline] as the compound, how does the SI read?
**A.** The SI was 54.9.

**Q.** How did the SI turn out when COc1cc2c(cc1OCc1ccccc1)CCNC2/C=C/c1cc2c(cc1C)OCCO2 (stereo not shown) [BC, 6-Benzyloxy-7-methoxy-1-[(E)-2-(7-methyl-2,3-dihydro-1,4-benzodioxin-6-yl)vinyl]-1,2,3,4-tetrahydroisoquinoline] was run?
**A.** Its SI is 90.6.

**Q.** With CCCCOc1ccc(/C=C/C2NCCc3cc(OCc4ccccc4)c(OC)cc32)cc1OC (stereo not shown) [BD, 6-Benzyloxy-1-[(E)-2-(4-butoxy-3-methoxy-phenyl)vinyl]-7-methoxy-1,2,3,4-tetrahydroisoquinoline] as the compound, how does the SI read?
**A.** The SI was 8.9.

**Q.** Which SI does the source give for CCCCOc1cc(/C=C/C2NCCc3cc(OCc4ccccc4)c(OC)cc32)ccc1OC (stereo not shown) [BE, 6-Benzyloxy-1-[(E)-2-(3-butoxy-4-methoxy-phenyl)vinyl]-7-methoxy-1,2,3,4-tetrahydroisoquinoline] here?
**A.** Its SI is 37.6.

**Q.** How did the SI turn out when COc1ccc(/C=C/C2NCCc3cc(OCc4ccccc4)c(OC)cc32)cc1F (stereo not shown) [BF] was run?
**A.** Its SI is 32.85.

**Q.** With COc1cc2c(cc1OCc1ccccc1)CCNC2/C=C/c1ccc(N(C)C)cc1C (stereo not shown) [BG, 4-[(E)-2-(6-benzyloxy-7-methoxy-1,2,3,4-tetrahydroisoquinolin-1-yl)vinyl]-N,N,3-trimethyl-aniline] as the compound, how does the SI read?
**A.** The SI was 2.69.

**Q.** How did the SI turn out when COc1cc2c(cc1OCc1ccccc1)CCNC2/C=C/c1cc(OC(F)(F)F)ccc1C (stereo not shown) [BH, 6-Benzyloxy-7-methoxy-1-[(E)-2-[2-methyl-5-(trifluoromethoxy)phenyl]vinyl]-1,2,3,4-tetrahydroisoquinoline] was run?
**A.** The SI was 2.75.

**Q.** COc1cc2c(cc1OCc1ccccc1)CCNC2/C=C/c1ccccc1 (stereo not shown) [BI, 6-Benzyloxy-7-methoxy-1-[(E)-styryl]-1,2,3,4-tetrahydroisoquinoline] was tested. Which SI did it give?
**A.** Its SI is 4.5.

**Q.** For COc1ccc(/C=C/C2NCCc3cc(OCc4ccccc4)c(OC)cc32)cc1 (stereo not shown) [BJ, 6-Benzyloxy-7-methoxy-1-[(E)-2-(4-methoxyphenyl)vinyl]-1,2,3,4-tetrahydroisoquinoline], which SI is on record?
**A.** The SI was 43.54.

**Q.** COc1cc2c(cc1OCc1ccccc1)CCNC2/C=C/c1cccc(OCc2ccccc2)c1 (stereo not shown) [BK, 6-Benzyloxy-1-[(E)-2-(3-benzyloxyphenyl)vinyl]-7-methoxy-1,2,3,4-tetrahydroisoquinoline] was tested. Which SI did it give?
**A.** The SI was 15.4.

**Q.** For CCCCOc1cc(/C=C/C2NCCc3cc(OCc4ccccc4)c(OC)cc32)c(C)cc1OC (stereo not shown) [BL, 6-Benzyloxy-1-[(E)-2-(5-butoxy-4-methoxy-2-methyl-phenyl)vinyl]-7-methoxy-1,2,3,4-tetrahydroisoquinoline], which SI is on record?
**A.** Its SI is 21.2.

**Q.** With COc1cc2c(cc1OCc1ccccc1)CCNC2/C=C/c1ccc2c(c1)CCO2 (stereo not shown) [BM, 6-Benzyloxy-1-[(E)-2-(2,3-dihydrobenzofuran-5-yl)vinyl]-7-methoxy-1,2,3,4-tetrahydroisoquinoline] as the compound, how does the SI read?
**A.** Its SI is 139.8.

**Q.** With COc1cc2c(cc1OCc1ccccc1)CCNC2/C=C/c1ccc2occc2c1 (stereo not shown) [BN, 1-[(E)-2-(benzofuran-5-yl)vinyl]-6-benzyloxy-7-methoxy-1,2,3,4-tetrahydroisoquinoline] as the compound, how does the SI read?
**A.** The SI was 24.8.

**Q.** How did the SI turn out when COc1cc(C)c(/C=C/C2NCCc3cc(OCc4ccccc4)c(OC)cc32)cc1OCCCC(=O)O (stereo not shown) [BO, 4-[5-[(E)-2-(B-benzyloxy-7-methoxy-1,2,3,4-tetrahydroisoquinolin-1-yl)vinyl]-2-methoxy-4-methyl-phenoxy]butanoic acid] was run?
**A.** The SI was 38.3.

**Q.** How did the SI turn out when COc1cc(F)c(/C=C/C2NCCc3cc(OCc4ccccc4)c(OC)cc32)cc1OC (stereo not shown) [BP, 6-Benzyloxy-1-[(E)-2-(2-fluoro-4,5-dimethoxy-phenyl)vinyl]-7-methoxy-1,2,3,4-tetrahydroisoquinoline] was run?
**A.** Its SI is 2.76.

**Q.** Which SI does the source give for COc1ccc(/C=C/C2NCCc3cc(OCc4ccccc4)c(OC)cc32)cc1OC (stereo not shown) [BQ, 6-Benzyloxy-1-[(E)-2-(3,4-dimethoxyphenyl)vinyl]-7-methoxy-1,2,3,4-tetrahydroisoquinoline] here?
**A.** Its SI is 43.5.

**Q.** COc1ccc(/C=C/C2NCCc3cc(OCc4ccccc4)c(OC)cc32)c(F)c1 (stereo not shown) [BR, 6-Benzyloxy-1-[(E)-2-(2-fluoro-4-methoxy-phenyl)vinyl]-7-methoxy-1,2,3,4-tetrahydroisoquinoline] was tested. Which SI did it give?
**A.** The SI was 8.77.

**Q.** With COc1cc2c(cc1OCc1ccccc1)CCNC2/C=C/c1sccc1C (stereo not shown) [BS, 6-Benzyloxy-7-methoxy-1-[(E)-2-(3-methyl-2-thienyl)vinyl]-1,2,3,4-tetrahydroisoquinoline] as the compound, how does the SI read?
**A.** The SI was 3.94.
